Drawing on article PMC12091907 (2025), this text covers Kd for one molecule.

In the test the target is TcdB frizzled-binding domain (TcdB-FBD, […]) with His-tag (Clostridioides difficile). Description: ELISA. (In general: In an ELISA, binding on a coated surface is turned into a signal by an enzyme label.)

B1: human CD44 extracellular domain (CD44-ECD, amino acids 21-220), labeled with Fc (Fc fusion)
chain: QIDLNITCRFAGVFHVEKNGRYSISRTEAADLCKAFNSTLPTMAQMEKALSIGFETCRYGFIEGHVVIPRIHPNSICAANNTGVYILTSNTSQYDTYCFNASAPPEEDCTSVTDLPNAFDGPITITIVNRDGTRYVQKGEYRTNPEDIYPSNPTDDDVSSGSSSERSSTSGGYIFYTFSTVHPIPDEDSPWITDSTDRIP
As for B1, the Kd (as a rule, the concentration at which binding is half-saturated) worked out at 82.1 nM.
